Test results: patent publication US20240226228A1, “ANTIMICROBIAL PEPTOID HAVING IMPROVED SELECTIVITY AND ANTIMICROBIAL COMPOSITION COMPRISING SAME” (priority 2021, published 2024)

system: red blood cells / E. coli; test: Analysis of selectivity of peptoid (HD10 divided by MIC against E. coli); conditions: HD10 divided by MIC against E. coli

SMILES | Selectivity
C[C@@H](c1ccccc1)N(CC(N)=O)C(=O)CN(CCCCN)C(=O)CN(CCCCN)C(=O)CN(C(=O)CN(C(=O)CN(CCCCN)C(=O)CN(C(=O)CN(C(=O)CN(CCCCN)C(=O)CN(CCc1c[nH]c2ccccc12)C(=O)CN(CCc1c[nH]c2ccccc12)C(=O)CNCCc1c[nH]cn1)[C@@H](C)c1ccccc1)[C@@H](C)c1ccccc1)[C@@H](C)c1ccccc1)[C@@H](C)c1ccccc1 [Peptoid 72] (H-[Gly(N-CH2CH2-imidazol-4-yl)][Gly(N(CH2)2(3-indolyl))][Gly(N(CH2)2(3-indolyl))][Nlys][Nspe][Nspe][Nlys][Nspe][Nspe][Nlys][Nlys][Nspe]-NH2) | 14.1
C[C@@H](c1ccccc1)N(CC(=O)N(CCc1c[nH]cn1)CC(=O)N(CCc1c[nH]c2ccccc12)CC(=O)N(CCc1c[nH]c2ccccc12)CC(N)=O)C(=O)CN(CCCCN)C(=O)CN(CCCCN)C(=O)CN(C(=O)CN(C(=O)CN(CCCCN)C(=O)CN(C(=O)CN(C(=O)CNCCCCN)[C@@H](C)c1ccccc1)[C@@H](C)c1ccccc1)[C@@H](C)c1ccccc1)[C@@H](C)c1ccccc1 [Peptoid 77] (H-[Nlys][Nspe][Nspe][Nlys][Nspe][Nspe][Nlys][Nlys][Nspe][Gly(N-CH2CH2-imidazol-4-yl)][Gly(N(CH2)2(3-indolyl))][Gly(N(CH2)2(3-indolyl))]-NH2) | >8.0
C[C@@H](c1ccccc1)N(CC(=O)N(CCCCN)CC(=O)N(CCc1c[nH]c2ccccc12)CC(=O)N(CCc1c[nH]c2ccccc12)CC(N)=O)C(=O)CN(CCCCN)C(=O)CN(CCc1c[nH]cn1)C(=O)CN(C(=O)CN(C(=O)CN(CCCCN)C(=O)CN(C(=O)CN(C(=O)CNCCCCN)[C@@H](C)c1ccccc1)[C@@H](C)c1ccccc1)[C@@H](C)c1ccccc1)[C@@H](C)c1ccccc1 [Peptoid 79] (H-[Nlys][Nspe][Nspe][Nlys][Nspe][Nspe][Gly(N-CH2CH2-imidazol-4-yl)][Nlys][Nspe][Nlys][Gly(N(CH2)2(3-indolyl))][Gly(N(CH2)2(3-indolyl))]-NH2) | >15.9
C[C@@H](c1ccccc1)N(CC(N)=O)C(=O)CN(CCCCN)C(=O)CN(CCc1c[nH]cn1)C(=O)CN(C(=O)CN(C(=O)CN(CCCCN)C(=O)CN(C(=O)CN(C(=O)CN(CCCCN)C(=O)CN(CCc1c[nH]c2ccccc12)C(=O)CN(CCc1c[nH]c2ccccc12)C(=O)CNCCCCN)[C@@H](C)c1ccccc1)[C@@H](C)c1ccccc1)[C@@H](C)c1ccccc1)[C@@H](C)c1ccccc1 [Peptoid 75] (H-[Nlys][Gly(N(CH2)2(3-indolyl))][Gly(N(CH2)2(3-indolyl))][Nlys][Nspe][Nspe][Nlys][Nspe][Nspe][Gly(N-CH2CH2-imidazol-4-yl)][Nlys][Nspe]-NH2) | 10.8
C[C@@H](c1ccccc1)N(CC(N)=O)C(=O)CN(CCc1c[nH]cn1)C(=O)CN(CCCCN)C(=O)CN(C(=O)CN(C(=O)CN(CCCCN)C(=O)CN(C(=O)CN(C(=O)CN(CCCCN)C(=O)CN(CCc1c[nH]c2ccccc12)C(=O)CN(CCc1c[nH]c2ccccc12)C(=O)CNCCCCN)[C@@H](C)c1ccccc1)[C@@H](C)c1ccccc1)[C@@H](C)c1ccccc1)[C@@H](C)c1ccccc1 [Peptoid 76] (H-[Nlys][Gly(N(CH2)2(3-indolyl))][Gly(N(CH2)2(3-indolyl))][Nlys][Nspe][Nspe][Nlys][Nspe][Nspe][Nlys][Gly(N-CH2CH2-imidazol-4-yl)][Nspe]-NH2) | >15.9
C[C@@H](c1ccccc1)N(CC(N)=O)C(=O)CN(CCCCN)C(=O)CN(CCCCN)C(=O)CN(C(=O)CN(C(=O)CN(CCCCN)C(=O)CN(C(=O)CN(C(=O)CN(CCc1c[nH]cn1)C(=O)CN(CCc1c[nH]c2ccccc12)C(=O)CN(CCc1c[nH]c2ccccc12)C(=O)CNCCCCN)[C@@H](C)c1ccccc1)[C@@H](C)c1ccccc1)[C@@H](C)c1ccccc1)[C@@H](C)c1ccccc1 [Peptoid 73] (H-[Nlys][Gly(N(CH2)2(3-indolyl))][Gly(N(CH2)2(3-indolyl))][Gly(N-CH2CH2-imidazol-4-yl)][Nspe][Nspe][Nlys][Nspe][Nspe][Nlys][Nlys][Nspe]-NH2) | >15.9
C[C@@H](c1ccccc1)N(CC(=O)N(CCCCN)CC(=O)N(CCc1c[nH]c2ccccc12)CC(=O)N(CCc1c[nH]c2ccccc12)CC(N)=O)C(=O)CN(CCc1c[nH]cn1)C(=O)CN(CCCCN)C(=O)CN(C(=O)CN(C(=O)CN(CCCCN)C(=O)CN(C(=O)CN(C(=O)CNCCCCN)[C@@H](C)c1ccccc1)[C@@H](C)c1ccccc1)[C@@H](C)c1ccccc1)[C@@H](C)c1ccccc1 [Peptoid 78] (H-[Nlys][Nspe][Nspe][Nlys][Nspe][Nspe][Nlys][Gly(N-CH2CH2-imidazol-4-yl)][Nspe][Nlys][Gly(N(CH2)2(3-indolyl))][Gly(N(CH2)2(3-indolyl))]-NH2) | >15.9

same assay, conditions: Tables 11-13

SMILES | Selectivity [HD10/MIC (E. coli)]
C[C@@H](c1ccccc1)N(CC(N)=O)C(=O)CN(C(=O)CN(CCCCN)C(=O)CN(C(=O)CN(CCCCN)C(=O)CN(CCCCN)C(=O)CN(C(=O)CN(C(=O)CN(CCCCN)C(=O)CN(C(=O)CN(C(=O)CN(CCCCN)C(=O)CN(CCc1c[nH]c2ccccc12)C(=O)CNCCc1c[nH]c2ccccc12)[C@@H](C)c1ccccc1)[C@@H](C)c1ccccc1)[C@@H](C)c1ccccc1)[C@@H](C)c1ccccc1)[C@@H](C)c1ccccc1)[C@@H](C)c1ccccc1 [Peptoid 35] | 6.6
C[C@@H](c1ccccc1)N(CC(N)=O)C(=O)CN(C(=O)CN(CCCCN)C(=O)CN(C(=O)CN(C(=O)CN(CCCCN)C(=O)CN(C(=O)CN(C(=O)CN(CCCCN)C(=O)CN(C(=O)CN(C(=O)CN(CCCCN)C(=O)CN(CCc1c[nH]c2ccccc12)C(=O)CNCCc1c[nH]c2ccccc12)[C@@H](C)c1ccccc1)[C@@H](C)c1ccccc1)[C@@H](C)c1ccccc1)[C@@H](C)c1ccccc1)[C@@H](C)c1ccccc1)[C@@H](C)c1ccccc1)[C@@H](C)c1ccccc1 [Peptoid 6] | 0.4
C[C@@H](c1ccccc1)N(CC(=O)N(CCCCN)CC(=O)N(CC(=O)N(CC(=O)N(CCCCN)CC(=O)N(CC(=O)N(CC(=O)N(CCCCN)CC(=O)N(CC(=O)N(CC(=O)N(CC(N)=O)Cc1ccccc1)[C@@H](C)c1ccccc1)[C@@H](C)c1ccccc1)[C@@H](C)c1ccccc1)[C@@H](C)c1ccccc1)[C@@H](C)c1ccccc1)[C@@H](C)c1ccccc1)C(=O)CN(C(=O)CN(CCCCN)C(=O)CNCc1ccccc1)[C@@H](C)c1ccccc1 [Peptoid 42] (H-[Nphe][Nlys][Nspe][Nspe][Nlys][Nspe][Nspe][Nlys][Nspe][Nspe][Nlys][Nspe][Nspe][Nphe]-NH2) | <0.1
C[C@@H](c1ccccc1)N(CC(=O)N(CCCCN)CC(=O)N(CC(=O)N(CC(=O)N(CCCCN)CC(=O)N(CC(=O)N(CC(=O)N(CCCCN)CC(=O)N(CC(=O)N(CC(=O)N(CCc1c[nH]c2ccccc12)CC(N)=O)[C@@H](C)c1ccccc1)[C@@H](C)c1ccccc1)[C@@H](C)c1ccccc1)[C@@H](C)c1ccccc1)[C@@H](C)c1ccccc1)[C@@H](C)c1ccccc1)C(=O)CN(C(=O)CNCCCCN)[C@@H](C)c1ccccc1 [Peptoid 4] (H-[Nlys][Nspe][Nspe][Nlys][Nspe][Nspe][Nlys][Nspe][Nspe][Nlys][Nspe][Nspe][Gly(N(CH2)2(3-indolyl))]-NH2) | <0.5
C[C@@H](c1ccccc1)N(CC(N)=O)C(=O)CN(CCCCN)C(=O)CN(C(=O)CN(CCCCN)C(=O)CN(CCCCN)C(=O)CN(C(=O)CN(C(=O)CN(CCCCN)C(=O)CN(C(=O)CN(C(=O)CN(CCCCN)C(=O)CN(C(=O)CNCCc1c[nH]c2ccccc12)[C@@H](C)c1ccccc1)[C@@H](C)c1ccccc1)[C@@H](C)c1ccccc1)[C@@H](C)c1ccccc1)[C@@H](C)c1ccccc1)[C@@H](C)c1ccccc1 [Peptoid 63] | 6.8

Where a SMILES comes first, the peptide text is derived from it. [ ]: non-standard residue; d: D form. Gly(N(CH2)2(3-indolyl)) = O=C(O)CNCCc1c[nH]c2ccccc12; Gly(N-CH2CH2-imidazol-4-yl) = O=C(O)CNCCc1c[nH]cn1; Nspe = C[C@H](NCC(=O)O)c1ccccc1; Nphe = O=C(O)CNCc1ccccc1; Nlys = NCCCCNCC(=O)O
